Drawing on article PMC4624681, “TIM-1 acts a dual-attachment receptor for Ebolavirus by interacting directly with viral GP and the PS on the viral envelope” (2015), this text covers Kd for one substance.

By Kd is commonly meant the equilibrium constant for the complex coming apart.

The target in the test is T1, Ig V domain of human T-cell immunoglobulin and mucin domain protein 1 (hTIM-1), human, Q96D42 22-127.
T1 sequence: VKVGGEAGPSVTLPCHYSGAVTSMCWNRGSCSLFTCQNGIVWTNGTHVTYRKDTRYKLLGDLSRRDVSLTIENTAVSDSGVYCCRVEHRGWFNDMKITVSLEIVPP
The test is described as follows: SPR; deglycosylated GP. On the technique in general: In SPR one partner is held on a chip, and binding of the other changes the refractive index at the surface.

deglycosylated Zaire GP (1–320) came in with a Kd of 48.5 µM.
